Compound potency records, mixed from different reports. Data source: NIAID ChemDB in PubChem.

All rows: cytotoxicity tests; cells: MT-4; endpoint: CC50

Blank or dashed fields: not listed here.

compound	read by	value
COc1ccc2c(c1)nc1n2C(c2c(Cl)cccc2Cl)SC1		1.7 µM
CCCCCCCCCCCCCC(=O)O[C@@H]1Cc2ccccc2[C@@H]1NC(=O)[C@H](Cc1ccccc1)C[C@H](O)CN1CCN(Cc2cccnc2)C[C@H]1C(=O)NC(C)(C)C		>0.01 µM
Cc1ccnc(N2C(=O)CSC2c2c(F)cccc2Cl)n1		134 µM
Nc1ccn([C@H]2CS[C@@H](COP(=O)(O)C(=O)O)O2)c(=O)n1		1000 µM
COCCN1C(=O)c2cccn2S(=O)(=O)c2ccccc21		>300 µM
Cc1cn([C@H]2C[C@H](N=[N+]=[N-])[C@@H](COP(=O)(OCC(C)(C)C)C(N)=O)O2)c(=O)[nH]c1=O	MTT	69.8 µM
CC1CNC(=O)c2ccccc2SSc2ccccc2C(=O)N1		15.9 µg/mL
CC(C)[C@H](COCc1ccccc1)NC(=O)C(F)(F)C(=O)C(Cc1ccc(OCc2ccccc2)cc1)NC(=O)[C@@H](NC(=O)OCc1ccccc1)C(C)C		90 µM
Cc1cn([C@H]2C[C@H](N=[N+]=[N-])[C@@H](CO)O2)c(=O)[nH]c1=O	MTT	210.4 µg/mL
CC(C)(C)NC(=O)[C@@H]1C[C@@H]2CCCC[C@@H]2CN1C[C@@H](O)[C@H](Cc1ccccc1)NC(=O)[C@H](CC(N)=O)NC(=O)c1ccc2ccccc2n1		>0.01 µM
CC(C)CN(C[C@@H](O)[C@H](Cc1ccccc1)NC(=O)O[C@H]1CCOC1)S(=O)(=O)c1ccc(N)cc1	WST	>100 µM
CC(C)CCNC(=O)C(F)(F)C(=O)[C@H](Cc1ccc(OCc2ccccc2)cc1)NC(=O)[C@@H](NC(=O)OCc1ccccc1)C(C)C		44 µM
CCOC(=O)c1cnc(N2CCN(Cc3cccc(C(N)=O)c3)CC2)nc1Oc1c(C)cc(-c2ccc(C#N)cc2)cc1C	MTT	>14.84 µM
O=c1[nH]cnc2c1ncn2[C@H]1CC[C@@H](CO)O1	MTT	529 µM
CC(C)C(N)C(=O)O[C@H](CN1C[C@H]2CCCC[C@H]2C[C@H]1C(=O)NC(C)(C)C)[C@H](Cc1ccccc1)NC(=O)[C@H](CC(N)=O)NC(=O)c1ccc2ccccc2n1		>0.01 µM
CCc1c(Sc2cccc3ccccc23)nc(SCC(=O)c2ccc(F)cc2)[nH]c1=O	MTT	26.04 µM
O=C1Nc2ccccc2Cn2cccc21		>300 µM
O=C1CSC(c2c(Cl)cccc2Cl)N1c1ncccn1		173 µM
COc1ccc2c(c1)nc1n2C(c2c(F)cccc2F)SC1		7.8 µM
O=C(CP(=O)(O)O)Nc1ccn([C@H]2CS[C@@H](CO)O2)c(=O)n1		1000 µM
Fc1ccc2nc3n(c2c1)C(c1c(Cl)cccc1Cl)SC3		>368 µM
N#Cc1ccc(Nc2nc(Oc3c(Cl)cc(Cl)cc3Cl)ncc2[N+](=O)[O-])cc1	MTT	≥25 µM
CCc1nc2sccn2c1C(=O)c1ccc(O)cc1	MTT	42 µM
CCN[C@H]1CO[C@@H]2OC[C@H](OC(=O)N[C@@H](Cc3ccccc3)[C@H](O)CN(CC(C)C)S(=O)(=O)c3ccc4nc(NC5CC5)sc4c3)[C@@H]21	WST	40.5 µM
O=C(c1ccccc1)c1ccc2c(c1)nc1n2C(c2c(F)cccc2Cl)SC1		26.7 µM
Cc1cc(Br)cc(C)c1Oc1ncc(NC(=O)C(F)(F)F)c(Nc2ccc(C#N)cc2)n1	MTT	>246 µM
CCOP(=O)(CC(=O)OC[C@H]1O[C@@H](n2ccc(N)nc2=O)CS1)OCC		500 µM
CC(C)(C)NC(=O)[C@@H]1C[C@@H]2CCCC[C@@H]2CN1C[C@@H](OC(=O)COc1ccc(C[C@H](N)C(=O)O)cc1)[C@H](Cc1ccccc1)NC(=O)[C@H](CC(N)=O)NC(=O)c1ccc2ccccc2n1		>0.01 µM
CCC[C@]1(CCc2ccccc2)CC(O)=C([C@@H](CC)c2cccc(NS(=O)(=O)c3ccc(C(F)(F)F)cn3)c2)C(=O)O1	WST	42.8 µM
FC(F)(F)c1ccc2nc3n(c2c1)C(c1c(Cl)cccc1Cl)SC3		19.3 µM
CC(C)Nc1cccnc1N1CCN(C(=O)c2cc3cc(NS(C)(=O)=O)ccc3[nH]2)CC1	MTT	>36 µM
CCC(Cc1ccccc1)c1cc(O)c(C(c2cccc(NC(=O)[C@@H](C)NC(=O)OC(C)(C)C)c2)C2CC2)c(=O)o1		>>30 µM
CCc1nc2ccccn2c1C(=O)c1ccccc1	MTT	180 µM
Cc1cc(C)c(Oc2ncc([N+](=O)[O-])c(Nc3ccc(C#N)cc3)n2)c(C)c1	MTT	≥252 µM
CCOC(=O)P(=O)(OCC)OC[C@H]1O[C@@H](n2cc(C)c(=O)[nH]c2=O)C[C@@H]1N=[N+]=[N-]	MTT	141.7 µM
CCC(Cc1ccccc1)c1cc(O)c(C(c2cccc(NC(=O)Cc3ccncc3)c2)C2CC2)c(=O)o1		>30 µM
Cc1cn([C@H]2C[C@H](N=[N+]=[N-])[C@@H](CO)O2)c(=O)[nH]c1=O	MTT	326 µM
N#Cc1ccc(Nc2nc(Oc3c(Cl)cccc3Cl)ncc2[N+](=O)[O-])cc1	MTT	≥206 µM
CC/C=C/C=C/C=C\C(=O)O[C@@H]1[C@@H](C)[C@]2(O)[C@@H]3C=C(C)C(=O)[C@@H]3CC(CO)=C[C@H]2[C@@H]2C(C)(C)[C@]12OC(=O)CCC	MTT	5.7 µM
CC(C)=CCN1Cc2cc(Cl)cc3[nH]c(=S)n(c23)C[C@@H]1C		67 µM
COc1c(N2CCN(Cc3cn(C4CC(N=[N+]=[N-])C(CO)O4)c(=O)[nH]c3=O)C(C)C2)c(F)cc2c(=O)c(C(=O)O)cn(C3CC3)c12	MTT	190 µM
CCOC(=O)P(=O)(OCCc1ccccc1)OC[C@H]1O[C@@H](n2cc(C)c(=O)[nH]c2=O)C[C@@H]1N=[N+]=[N-]	MTT	197.1 µM
CCn1cc(C(=O)O)c(=O)c2cc(F)c(N3CCN(Cc4cn(C5CC(N=[N+]=[N-])C(CO)O5)c(=O)[nH]c4=O)C(C)C3)c(F)c21	MTT	>324 µM
CCOP(=O)(OC[C@H]1O[C@@H](n2cc(C)c(=O)[nH]c2=O)C[C@@H]1N=[N+]=[N-])C(=O)NCCc1ccccc1	MTT	69.1 µM
O=S1(=O)c2ccccc2NC(CO)c2cccn21		200 µM
Cc1cn([C@H]2C[C@H](N=[N+]=[N-])[C@@H](COP(=O)(OC(C)C)C(N)=O)O2)c(=O)[nH]c1=O	MTT	240.2 µM
Cc1cc(C)nc(N2C(=O)CSC2c2c(F)cccc2F)n1		152 µM
O=C(O)C1Nc2ccccc2S(=O)(=O)n2cccc21		>300 µM
CCc1nc2ccccn2c1C(=O)c1cccs1	MTT	240 µM

CCn is the concentration with n% toxicity to the cells. Rows are shuffled and stem from different studies.